Compound potency records, mixed from different reports. Data source: NIAID ChemDB in PubChem.

All rows: host cell toxicity; cells: VERO; measure: CC50

CCn: concentration that lowers growth or viability of the cells by n%.

smiles	result
c1ccc(-c2ccc(CNc3cccc(N4CCSCC4)c3)cc2)cc1	32 µg/mL
C=CCN1CCCC[C@H]1[C@@H](O)c1cc(C(F)(F)F)nc2c(C(F)(F)F)cccc12	>128 µM
O=[N+]([O-])c1c(-c2ccccc2)c(-c2ccccc2)n(COCCO)c1-c1ccccc1	43 µM
Cc1c(C(=O)c2ccccc2)[n+](=O)c2cc(Cl)ccc2n1[O-]	14.68 µg/mL
Nc1ncnc2c([C@@H]3O[C@H](CSCCC(N)C(=O)O)C[C@H]3O)[nH]nc12	40 µg/mL
COC(=O)CC(=O)O[C@@H]1C[C@@H]2CC[C@H]3C(C)(C)CCC[C@]3(C)[C@]23CCC1(C)C3	30 µg/mL
CCCCCCCCCCSc1ncnc2c1ncn2CC(=O)OC(C)(C)C	>10 µg/mL
CCOC(=O)c1cc(CN(C)c2ccc(OC(F)(F)F)cc2)on1	>128 µM
O=C(NCc1ccc(Cl)cc1)c1c[nH]c2ccc(C#CCO)cc2c1=O	49 µM
Cc1nc2ccc(Cl)cn2c1C(=O)NCc1ccc(N2CCOCC2)c(F)c1	>32 µM
Nc1cccc(-c2cc(C(F)(F)F)nc3c(C(F)(F)F)cccc23)c1	45 µM
CC1=NN(c2ccccc2)C(=O)C1N=Nc1ccc(S(=O)(=O)Nc2nnc(C)s2)cc1	18.54 µg/mL
Nc1nc(Cl)c2ncn(C=C3C[C@H]3CO)c2n1	95 µM
Cc1ccc(NC2=CC(=O)C(=O)c3ccccc32)cc1	1.95 µg/mL
CC(C)(C)C(=O)OCn1nc([C@@H]2O[C@H](CO)C[C@H]2O)c2ncnc(N)c21	200 µg/mL
CCCCCCCCC[C@H]1CC2CCC3C(C(=O)OCCCCN=C(N)N)[C@@H](C)N=C(N1)N23	0.5 µM
COc1cccc([C@H](c2cc3cc(C#N)ccc3nc2OC)[C@@](O)(CCN(C)C)c2cccc(C)n2)c1F	>10 µg/mL
CN1CCN(/N=C/c2cc(C(F)(F)F)nc3c(C(F)(F)F)cccc23)CC1	16 µM
CC(=O)NC(CCSC[C@H]1O[C@@H](n2ccc3c(N)ncnc32)[C@H](O)[C@@H]1O)C(=O)O	>400 µg/mL
Cc1nc(CC(=O)NN)nn1C	400 µg/mL
CCOc1cc(/C=N/NC(=O)Cn2nc(-c3ccccc3)c3c2-c2ccccc2S(=O)(=O)N3C)ccc1O	9.2 µM
CC(=O)OCCOCn1c(-c2ccccc2)c(-c2ccccc2)c([N+](=O)[O-])c1-c1ccccc1	>300 µM
Cc1nc2ccc(C(F)(F)F)cn2c1C(=O)NCc1ccc2c(c1)CCO2	>32 µM
O=C1CC(SC(=S)N2CCCCC2)C(=O)N1c1ccccc1	3.7 µg/mL
CCOC(=O)c1c(Br)c(-c2ccccc2)n(COCCO)c1-c1ccccc1	64 µM
COc1ccc(/C=N/NC(=O)Cn2nc(-c3ccccc3)c3c2-c2ccccc2S(=O)(=O)N3C)cc1	15.4 µM
CC(C1=NN/C(=N\c2ccccn2)SC1)N1C(=O)c2ccccc2C1=O	333 µg/mL
Cc1nc(Cc2ccccc2)c2[nH]c(=S)[nH]c(=O)n12	100 µg/mL
COc1ccc(C[C@@H](C)[C@H](C)Cc2ccc(OC)c(OC)c2)cc1OC	160 µM
CN1c2c(-c3ccccc3)nn(CC(=O)N/N=C/c3ccc(O)cc3O)c2-c2ccccc2S1(=O)=O	4.3 µM
CC12CC[C@]3(C1)[C@@H](CC2=O)[C@H](O)C[C@H]1C(C)(C)CCC[C@@]13C	60 µg/mL
O=[N+]([O-])c1cc(-c2ccccc2)n(COCCO)c1-c1ccccc1	46 µM
CO[C@H]1/C=C/O[C@@]2(C)Oc3c(C)c(O)c4c(c3C2=O)C2=NC(C)(C)N(c3ccccc3)C2=C(NC(=O)/C(C)=C\C=C\[C@H](C)[C@H](O)[C@@H](C)[C@@H](O)[C@@H](C)[C@H](OC(C)=O)[C@@H]1C)C4=O	>10 µg/mL
CC(=O)Nc1nc2c(CC(O)CO)ncn2c(=O)[nH]1	200 µg/mL
Clc1ccc(CNc2ccc(N3CCSCC3)cc2)cc1	4 µg/mL
CC(=O)c1c(C)n([O-])c2ccccc2[n+]1=O	>62.5 µg/mL
[N-]=[N+]=CC(=O)CC[C@H](NC(=O)OCc1ccccc1)C(=O)OCc1ccccc1	3.26 µg/mL
Nc1nc2c(ncn2C=C2CC2CO)c(=O)[nH]1	85 µM
COc1cccc([C@H](c2cc3cc(C#N)ccc3nc2OC)[C@@](O)(CCN(C)C)c2cc(C)cc(C)n2)c1OC	>10 µg/mL
O[C@@H](c1cc(C(F)(F)F)nc2c(C(F)(F)F)cccc12)[C@@H]1CCCCN1Cc1ccccc1	50 µM
CC1(C)CCC[C@@]2(C)[C@H]1C[C@@H](O)C1=CC(=O)[C@@]3(C)CC[C@]12C3	28 µg/mL
COc1ccc(/C=N/NC(=O)Cn2nc(-c3ccccc3)c3c2-c2ccccc2S(=O)(=O)N3C)c(OC)c1	>100 µM
Clc1ccc(CNc2cccc(N3CCOCC3)c2)cc1	16 µg/mL
COc1ccc2c(c1)[n+]([O-])c(-c1ccccc1)c(N)[n+]2[O-]	16.28 µg/mL
Nc1ncnc2c1ncn2C[C@H](O)CO	>400 µg/mL
Cc1c(C(=O)c2ccccc2)[n+](=O)c2cc(Cl)c(Cl)cc2n1[O-]	3.3 µg/mL
OCCOCn1c(-c2ccccc2)c(Br)c(-c2ccccc2)c1-c1ccccc1	15 µM
O=C(Nc1ccc(N2CCSCC2)cc1)c1ccc(Cl)cc1	64 µg/mL
CN1c2c(-c3ccccc3)nn(CC(=O)N/N=C/c3ccc([N+](=O)[O-])cc3)c2-c2ccccc2S1(=O)=O	>100 µM
O=[n+]1c2ccccc2n([O-])c2ccccc21.[Cl][Cu][Cl]	28.18 µg/mL
C[C@@H]1CC[C@H]2C(C)(C)[C@H](O)CC[C@]2(C)C12Cc1c(O)cc(C=O)c(C=O)c1O2	24.3 µg/mL
O=C(NN=Cc1ccc([N+](=O)[O-])s1)c1ccccc1Sc1ccccc1	3.11 µg/mL
COc1cccc([C@H](c2cc3cc(Br)ccc3nc2OC)[C@@](O)(CCN(C)C)c2ccncc2C)c1F	>10 µg/mL
CCOC(=O)c1cc(CNc2cc(C(F)(F)F)nc3c(C(F)(F)F)cccc23)on1	>128 µM
CC1=CC(=NC(=O)CBr)C=C/C1=N\S(=O)(=O)c1ccccc1	0.66 µg/mL
Nc1nc(=O)n([C@@H]2C=C[C@H](CO)O2)cc1F	>100 µM
CCn1nc(-c2ccc(Cn3ccc4ccccc43)cc2)nc1C	≥80 µg/mL
O=C(NN=Cc1ccccc1)c1ccccc1Sc1ccccc1	>50 µg/mL
CCOC(=O)c1c([N+](=O)[O-])c(-c2ccccc2)n(COCCO)c1C	>300 µM
C=C1C(=O)OC(C)(C)C1c1ccccc1	<0.51 µg/mL
CC(C)(C)C(=O)OCn1nc([C@@H]2O[C@H](CO)[C@@H](O)[C@H]2O)c2ncnc(N)c21	40 µg/mL
CC(=O)c1c(C)n([O-])c2cc(C)c(C)cc2[n+]1=O	>62.5 µg/mL
CCOC(=O)c1cc(CNc2ccc(OC(F)(F)F)cc2)on1	>128 µM
COc1cccc([C@H](c2cc3cc(Br)ccc3nc2OC)[C@@](O)(CCN(C)C)c2cc(C)cc(C)n2)c1OC	>10 µg/mL
CC1(C)CCC[C@@]2(C)[C@H]1C[C@H](O)[C@H]1C[C@@H](O)C3(C)CC[C@]12C3	30 µg/mL
Nc1ccn([C@H]2S[C@@H](CO)C=C2F)c(=O)n1	>100 µM
CC1OC(n2ccc(NC(=O)c3ccc(NC(=O)C(C)(N)CO)cc3)nc2=O)CCC1OC1OC(C)C(N(C)C)C(O)C1O	102.4 µg/mL
CCOC(=O)c1cc(CN(C)c2ccc(C(F)(F)F)cc2)on1	>128 µM
Cc1ccc2c(c1)[n+](=O)c(C(=O)c1ccccc1)c(C)n2[O-]	>10 µg/mL
Clc1ccc(CNc2ccc(-n3ccnc3)cc2)cc1	2 µg/mL
CC(C)CC(C1=NNC(=Nc2ccccc2)SC1)N1C(=O)c2ccccc2C1=O	192 µg/mL
Cc1ccn2c(C(=O)NCc3ccc(N4CCC5(CC4)OC[C@H](C)O5)c(F)c3)c(C)nc2c1	>32 µM
COc1cccc([C@H](c2cc3cc(Br)ccc3nc2OC)[C@@](O)(CCN(C)C)c2cccnc2C)c1OC	>10 µg/mL
Cc1ccn2c(C(=O)NCc3ccc(N4CCC(c5ccc(C(F)(F)F)cc5)CC4)nc3)c(C)nc2c1	>32 µM
CC(C1=NNC(=NC2CCCCC2)SC1)N1C(=O)c2ccccc2C1=O	192 µg/mL
C=CCc1nc(C)n2c(=O)[nH]c(=S)[nH]c12	200 µg/mL
CC12CC3C4(CC[C@H]5C(C)(C)CCC[C@]5(C)[C@]34C1)CC2=O	40 µg/mL
COc1cccc([C@H](c2cc3cc(Br)ccc3nc2OC)[C@@](O)(CCN(C)C)c2ccc(C)nc2)c1OC	>10 µg/mL
O=C(Nc1ccccc1N1CCSCC1)c1ccc(Cl)cc1	64 µg/mL
CCn1nc(CC(=O)N/N=C/c2ccco2)nc1C	400 µg/mL
Nc1ccn([C@@H]2C=C(F)[C@H](CO)O2)c(=O)n1	>100 µM
CCCCCCN(CCCCCC)/N=C/c1c2c(O)c3c(O)c(C)c4c(c3c1O)C(=O)[C@@](C)(O/C=C/[C@H](OC)[C@@H](C)[C@@H](OC(C)=O)[C@H](C)[C@H](O)[C@H](C)[C@@H](O)[C@@H](C)/C=C/C=C(/C)C(=O)N2)O4	11.29 µg/mL
CCc1nc(CC(=O)NN=C(C)C)nn1CC	400 µg/mL
CN1c2c(-c3ccccc3)nn(CC(=O)N/N=C/c3c(Cl)cccc3Cl)c2-c2ccccc2S1(=O)=O	>100 µM
CCCCCCCCCCCCSc1ncnc2c1ncn2CC(=O)OCC	>10 µg/mL
O=C(NN=Cc1cccs1)c1ccccc1Sc1ccccc1	>50 µg/mL
COc1ccc(CNC(=O)c2c(C)n([O-])c3cc(F)c(F)cc3[n+]2=O)cc1	>16.6 µg/mL
O=C(NN=Cc1ccc([N+](=O)[O-])cc1)c1ccccc1Sc1ccccc1	>50 µg/mL
NNC(=O)Cc1nc2n(n1)CCCCC2	80 µg/mL
CNc1nc(N)cc(Nc2ccc(Br)cc2)n1	9.11 µg/mL
CC(C1=NNC(=Nc2ccc([N+](=O)[O-])cc2)SC1)N1C(=O)c2ccccc2C1=O	192 µg/mL
Cc1c(C(=O)/C=C/c2ccccc2[N+](=O)[O-])[n+](=O)c2ccccc2n1[O-]	1.05 µg/mL
COc1ccc([C@](O)(CCN(C)C)[C@@H](c2cc3cc(C#N)ccc3nc2OC)c2cccc(OC)c2OC)cn1	>10 µg/mL
CC(C1=NNC(=Nc2ccccc2)SC1)N1C(=O)c2cccc([N+](=O)[O-])c2C1=O	481 µg/mL
COC(=O)CC(=O)O[C@@H]1C[C@@H]2[C@@H](OC(C)=O)C[C@H]3C(C)(C)CCC[C@]3(C)[C@]23CCC1(C)C3	30 µg/mL
O=C1c2ccccc2C(=O)N1CCCC1=NNC(=Nc2ccccc2)SC1	>111 µg/mL
CCCCCCC[C@H]1CC2CCC3=C(C(=O)OCCCCN=C(N)N)C(CCCCC)N=C(N1)N32	1.1 µM
C[CH2][Sn]([Cl])([Cl])[CH2]C.c1cnc2c(c1)ccc1cccnc12	0.95 µg/mL
Cc1ccn2c(C(=O)NCc3ccc(Oc4cccc(C(F)(F)F)c4)cc3)c(C)nc2c1	>32 µM
C=CCN=C1NN=C(C(C)N2C(=O)c3ccccc3C2=O)CS1	557 µg/mL
O=C(Nc1ccccc1N1CCSCC1)c1ccc(-c2ccccc2)cc1	64 µg/mL
S=c1[nH]nc(Cc2nc3n(n2)CCCCC3)o1	≥80 µg/mL

A second listing of 11 rows from above:

{"smiles": "COc1cccc([C@H](c2cc3cc(Br)ccc3nc2OC)[C@@](O)(CCN(C)C)c2cccnc2C)c1OC", "result": ">10 µg/mL"}
{"smiles": "CCOC(=O)c1cc(CN(C)c2ccc(C(F)(F)F)cc2)on1", "result": ">128 µM"}
{"smiles": "CN1c2c(-c3ccccc3)nn(CC(=O)N/N=C/c3ccc([N+](=O)[O-])cc3)c2-c2ccccc2S1(=O)=O", "result": ">100 µM"}
{"smiles": "O=[n+]1c2ccccc2n([O-])c2ccccc21.[Cl][Cu][Cl]", "result": "28.18 µg/mL"}
{"smiles": "COc1cccc([C@H](c2cc3cc(Br)ccc3nc2OC)[C@@](O)(CCN(C)C)c2ccncc2C)c1F", "result": ">10 µg/mL"}
{"smiles": "Clc1ccc(CNc2cccc(N3CCOCC3)c2)cc1", "result": "16 µg/mL"}
{"smiles": "CCCCCCCCCCSc1ncnc2c1ncn2CC(=O)OC(C)(C)C", "result": ">10 µg/mL"}
{"smiles": "C[C@@H]1CC[C@H]2C(C)(C)[C@H](O)CC[C@]2(C)C12Cc1c(O)cc(C=O)c(C=O)c1O2", "result": "24.3 µg/mL"}
{"smiles": "CCOC(=O)c1cc(CNc2cc(C(F)(F)F)nc3c(C(F)(F)F)cccc23)on1", "result": ">128 µM"}
{"smiles": "Nc1ccn([C@@H]2C=C(F)[C@H](CO)O2)c(=O)n1", "result": ">100 µM"}
{"smiles": "CC(C1=NNC(=Nc2ccc([N+](=O)[O-])cc2)SC1)N1C(=O)c2ccccc2C1=O", "result": "192 µg/mL"}

Neighbouring rows are from separate reports.